Experimental findings from patent US9180159B2, “Use of cell-permeable peptide inhibitors of the JNK signal transduction pathway for the treatment of chronic or non-chronic inflammatory digestive diseases” (Xigen Inflammation Ltd., priority 2008, dated 2015) are described below.

The test system of this data set is TC-3 cell cultures. As to the kind of experiment: Cellular import and intracellular persistence of fluorescein-labeled peptides in TC-3 cells. In kind it is cell-based. The settings on record: time course study. On the procedure:
The ability of the L- and D-enantiomeric forms of TAT and TAT-IB1(s) peptides (“TAT-IB peptides”) to enter cells was evaluated. L-TAT, D-TAT, L-TAT-IB1(s), and D-TAT-IB1(s) peptides [SEQ ID NOs: 5, 6, 9 and 12, respectively] were labeled by N-terminal addition of a glycine residue conjugated to fluorescein. Labeled peptides (1 μM) were added to TC-3 cell cultures, which were maintained as described in Example 3. At predetermined times cells were washed with PBS and fixed for five minutes in ice-cold methanol-acetone (1:1) before being examined under a fluorescence microscope. Fluorescein-labeled BSA (1 μM, 12 moles/mole BSA) was used as a control.
Little to no signal was present at 48 hours.

With “H-DQSRPVQPFLNLTTPRKPRPPRRRQRRKKRG-OH [XG-102]”, the “stability inside the cells” value was “extremely stable inside the cells”. The result for H-RRRQRRKKRG-OH reads “extremely stable inside the cells”.
